Results of unrelated studies side by side (data: NIAID ChemDB).

All rows: tests in culture; organism: HIV-1; read-out: EC50

ECn: concentration that inhibits the pathogen or its effect by n%. Rows are shuffled and stem from different studies. a–b is a range or a potency band. Blank or dashed fields: not listed here.

SMILES,changes,strain,cell line,result
Cc1cc(OC[C@H]2CNCCO2)ccc1NC(=O)COc1ccc(Cl)cc1C(=O)c1cc(C#N)cc(OC(F)F)c1,Y181C,,HeLa,0.0007 µM
Cc1cn([C@H]2C[C@H](N=[N+]=[N-])[C@@H](CO)O2)c(=O)[nH]c1=O,RT-A98G,VAU (RT-A98G),PBMC,0.01 µM
CCOP(=O)(/C=C\n1cc(F)c(=O)[nH]c1=O)OCC,,IIIB,CEM + CEM-SS,>200 µM
CC(C)=CCOc1cc(NC(=S)c2ccoc2C)ccc1Cl,,UC781-resistant,CEM + CEM-SS,>620 µM
Cc1cc(C)c2ccc(C)c(-n3c(SCC(=O)Nc4ccc(S(N)(=O)=O)cc4Cl)nnc3C(F)(F)F)c2n1,,,HeLa,0.001 µM
Cc1cc(S(N)(=O)=O)ccc1NC(=O)COc1ccc(Cl)cc1C(=O)c1cc(C#N)cc(C(=O)N2CCC2)c1,K103N,,HeLa,0.14 µM
O=C1Nc2ccc(Cl)cc2[C@@](C#CC2CC2)(C(F)(F)F)O1,+Vpx,NL4-3,MDM,0.071 µM
O=C1N(Cc2ccc3[nH]ncc3c2)[C@H](CCc2ccccc2)[C@@H](O)[C@@H](Cc2ccccc2)N1Cc1ccc2[nH]ncc2c1,,RF,MT-2,<0.006 µM
CCOP(=O)(/C=C/n1cc(I)c(=O)[nH]c1=O)OCC,,IIIB,CEM + CEM-SS,>200 µM
Cc1ccnc2c1NC(=O)c1cccnc1N2C1CC1,RT-K70R,,MT-4,<0.4 µM
COc1ccccc1C(=O)Nc1ccc(Cl)c(C(=O)OC(C)C)c1,,,,1.3 µM
c1cc(CN2CCCNCCNCCCNCC2)ccc1CN1CCCNCCNCCCNCC1,,PERE98287RT Recombinant,,0.02 µM
Nc1ccn([C@H]2CC[C@@H](CO)O2)c(=O)n1,RT-D67N K70R V108A I135T T215Y,IIIB-AZT-1 (RT D67N K70R V108A I135T T215Y),MT-4,0.55 µM
CC(C)(C)NC(=O)[C@@H]1C[C@@H]2CCCC[C@@H]2CN1C[C@@H](O)[C@H](Cc1ccccc1)NC(=O)[C@H](CC(N)=O)NC(=O)c1ccc2ccccc2n1,,NL4-3,MT-4,0.037 µM
Cc1cc(-n2c(C)nnc2SCC(=O)Nc2ccccc2Br)c2ccccc2c1C,Y188L,,HeLa,0.098 µM
O=C(Nc1cc(S(=O)(=O)O)cc2cc(S(=O)(=O)O)c(N=Nc3ccc(N=Nc4c(S(=O)(=O)O)cc5cc(S(=O)(=O)O)cc(NC(=O)c6cccc(Cl)c6Cl)c5c4O)cc3)c(O)c12)c1ccc(Cl)cc1Cl,,RF,MT-2,0.2–0.28 µg/mL
CC(C)CN(C[C@@H](O)[C@H](Cc1ccccc1)NC(=O)[C@H](CC(N)=O)NC(=O)c1ccc2ccccc2n1)C(=O)NC(C)(C)C,,RF,,0.077 µM
Cc1cc(S(N)(=O)=O)ccc1NC(=O)COc1ccc(Cl)cc1C(=O)c1cc(C#N)cc(OC(F)(F)F)c1,V106A,,HeLa,0.0019 µM
CC(=O)Oc1ccc(/C=C/C(=O)O[C@H](C(=O)O)[C@H](OC(=O)/C=C/c2ccc(OC(C)=O)c(OC(C)=O)c2)C(=O)O)cc1OC(C)=O,AMD2763-resistant,NL4-3,MT-4,>93 µM
O=c1ccn(/C=C/P(=O)(O)O)c(=O)[nH]1,,IIIB,CEM + CEM-SS,>200 µM
CCOC(=O)c1cc(C#N)cc(C(=O)c2cc(Cl)ccc2OCC(=O)Nc2ccc(S(N)(=O)=O)cc2C)c1,Y181C,,HeLa,0.0042 µM
CO[P@](=O)(c1cc(C)cc(/C=C/C#N)c1)c1c(C(N)=O)[nH]c2ccc(Cl)c(F)c12,,BH10,MT-4,0.001 µM
CC(=O)c1cccc(CN2C(=O)N(Cc3ccc4[nH]ncc4c3)[C@H](Cc3ccccc3)[C@H](O)[C@@H](O)[C@H]2Cc2ccccc2)c1,,RF,MT-2,<0.015 µM
COC(=O)CCC/C=C(/c1ccc(OC)c(C(C)=O)c1)c1ccc(OC)c(C(=O)OC)c1,,RF,CEM + CEM-SS,0.47 µM
Cc1cn([C@H]2C[C@H](N=[N+]=[N-])[C@@H](CO)O2)c(=O)[nH]c1=O,,IIIB,H9,>100 µM
Nc1nc(=O)n([C@@H]2CS[C@H](CO)O2)cc1F,,HXB2,HT4 + HT4 LacZ-1,0.09 µM
CC(C)CN(C[C@@H](O)[C@H](Cc1ccccc1)NC(=O)O[C@H]1CO[C@H]2OCC(F)(F)[C@H]21)S(=O)(=O)c1ccc(N)cc1,L63P,ERS104pre,PBMC,0.0027 µM
Cc1cn([C@H]2C=C[C@@H](CO)O2)c(=O)[nH]c1=O,+Vpx,NL4-3,Jurkat cells,4.3 µM
Nc1ccn([C@@H]2CC[C@H](CO)O2)c(=O)n1,RT-D67N K70R T215Y K219Q,G910-6 AZT-resistant (RT D67N K70R T215Y K219Q),MT-2,0.58 µM
Cc1cc(S(N)(=O)=O)ccc1NC(=O)COc1ccc(Cl)cc1C(=O)c1cc(C#N)cc(C(N)=O)c1,K103N,,HeLa,>2 µM
Nc1ccn([C@H]2CC[C@@H](CO)O2)c(=O)n1,+Vpx,NL4-3,MDM,0.042 µM
COC(=O)Nc1cc(C#N)cc(C(=O)c2cc(Cl)ccc2OCC(=O)Nc2ccc(S(N)(=O)=O)cc2C)c1,K103N,,HeLa,0.014 µM
Cc1cn(/C=C\P(=O)(O)O)c(=O)[nH]c1=O,,IIIB,CEM + CEM-SS,>200 µM
Nc1ccn([C@H]2CC[C@@H](CO)O2)c(=O)n1,,HXB2,HT4 + HT4 LacZ-1,0.38 µM
COC(=O)c1cc(C#N)cc(C(=O)c2cc(Cl)ccc2OCC(=O)Nc2ccc(S(N)(=O)=O)cc2C)c1,Y181C,,HeLa,0.0029 µM
COC(=O)CCC/C=C(\c1ccc(OC)c(C(=O)OC)c1)c1cc(Cl)c(OC)c(C(=O)OC)c1,,RF,CEM + CEM-SS,0.08 µM
Cc1ccnc2c1NC(=O)c1cccnc1N2C1CC1,+Vpx,NL4-3,MDM,0.361 µM
CON(C)C(=O)c1cc(C#N)cc(C(=O)c2cc(Cl)ccc2OCC(=O)Nc2ccc(S(N)(=O)=O)cc2C)c1,K103N,,HeLa,0.013 µM
CC1=C(C(=O)Nc2ccc(Cl)c(C(=O)OC(C)C)c2)SCCO1,,RF,C8166,2.1 µM
O=C1N(Cc2cccc(NCc3nc4ccccc4s3)c2)[C@H](Cc2ccccc2)[C@H](O)[C@@H](O)[C@@H](Cc2ccccc2)N1Cc1ccc2[nH]ncc2c1,,RF WT,MT-2,<0.005 µM
Nc1ccn([C@H]2CC[C@@H](CO)O2)c(=O)n1,,LAI,CEM + CEM-SS,0.0325 µM
O=C(O)P(=O)(O)O,TAM1 (M41L D67N L210W T215Y),HXB2,MT-2,7.9 µM
Cc1cn([C@H]2C[C@H](N=[N+]=[N-])[C@@H](CO)O2)c(=O)[nH]c1=O,AMD3100-resistant,NL4-3,,0.006 µM
O=C1O[C@H]2[C@@H]3OC(=O)c4cc(O)c(O)c(O)c4-c4c(cc(O)c(O)c4O)C(=O)OC[C@H]2O[C@@H](OC(=O)c2cc(O)c(O)c(O)c2)[C@@H]3OC(=O)c2cc(O)c(O)c3c2[C@@H]2C1=CC(=O)[C@](O)(O3)C2(O)O,RT-Y188H,NNRTI-resistant (RT Y188H) ARP1011,MAGI,0.89 µg/mL
NS(=O)(=O)c1ccc(NC(=O)CSc2nnc(C(F)(F)F)n2-c2ccc(Cl)c3ccccc23)c(Cl)c1,Y188L,,HeLa,0.041 µM
Cc1ccc(NC(=O)c2cccc(CN3C(=O)N(Cc4ccc5[nH]ncc5c4)[C@H](Cc4ccccc4)[C@H](O)[C@@H](O)[C@H]3Cc3ccccc3)c2)nc1,,RF,MT-2,<0.004 µM
CCOP(=O)(/C=C\n1cnc2c(=O)[nH]c(NC(C)=O)nc21)OCC,,IIIB,CEM + CEM-SS,>200 µM
CC(C)=CCN1Cc2cc(Cl)cc3[nH]c(=S)n(c23)C[C@@H]1C,RT-A98G K103R,BCF06,PBMC,>6.25 µM
O=S(=O)(c1ccccc1)c1ccccc1,RT-Y181C,UC781-RS(RT-Y181C,,>114 µM
Cc1ccnc2c1NC(=O)c1cccnc1N2C1CC1,,IIIB S0561945,,>15 µM
CC(C)(C)NC(=O)[C@@H]1C[C@@H]2CCCC[C@@H]2CN1C[C@@H](O)[C@H](Cc1ccccc1)NC(=O)[C@H](CC(N)=O)NC(=O)c1ccc2ccccc2n1,PR-L10V K20C M36I L63T I64V A71V,BCF11,PBMC,0.0225 µM
COC(=O)N[C@H](C(=O)N[C@@H](Cc1ccccc1)[C@@H](O)CN(Cc1ccc(-c2ccccn2)cc1)NC(=O)[C@@H](NC(=O)OC)C(C)(C)C)C(C)(C)C,,NL4-3,MT-4,0.0047 µM
Cc1cc(S(N)(=O)=O)ccc1NC(=O)COc1ccc(Cl)cc1C(=O)c1cc(C#N)cc([N+](=O)[O-])c1,WTRVA,,HeLa,0.0005 µM
NS(=O)(=O)c1ccc(NC(=O)CSc2nnc(C(F)(F)F)n2-c2cccc3cccnc23)c(Cl)c1,Y188L,,HeLa,0.182 µM
Nc1cccc(CN2C(=O)N(Cc3cccc(N)c3)[C@H](Cc3ccccc3)[C@H](O)[C@@H](O)[C@H]2Cc2ccccc2)c1,,RF WT,MT-2,<0.13 µM
CC(C)c1nc(CN(C)C(=O)N[C@H](C(=O)N[C@@H](Cc2ccccc2)C[C@H](O)[C@H](Cc2ccccc2)NC(=O)OCc2cncs2)C(C)C)cs1,,WOPRO1838 Recombinant,,1.6 µM
CCOP(=O)(/C=C/n1cc(C)c(=O)[nH]c1=O)OCC,,IIIB,CEM + CEM-SS,>200 µM
Nc1nc(N)c2ncn([C@H]3CO[C@@H](CO)O3)c2n1,,IIIB,H9,0.075 µM
Fc1cccc(F)c1C1SCc2nc3ccccc3n21,RT-Y181C,UC781-RS(RT-Y181C,,>69 µM

A second listing of 6 rows from above:

{"SMILES": "CC(C)CN(C[C@@H](O)[C@H](Cc1ccccc1)NC(=O)O[C@H]1CO[C@H]2OCC(F)(F)[C@H]21)S(=O)(=O)c1ccc(N)cc1", "changes": "L63P", "strain": "ERS104pre", "cell line": "PBMC", "result": "0.0027 µM"}
{"SMILES": "CC(=O)c1cccc(CN2C(=O)N(Cc3ccc4[nH]ncc4c3)[C@H](Cc3ccccc3)[C@H](O)[C@@H](O)[C@H]2Cc2ccccc2)c1", "strain": "RF", "cell line": "MT-2", "result": "<0.015 µM"}
{"SMILES": "Cc1ccnc2c1NC(=O)c1cccnc1N2C1CC1", "changes": "RT-K70R", "cell line": "MT-4", "result": "<0.4 µM"}
{"SMILES": "CCOP(=O)(/C=C\\n1cc(F)c(=O)[nH]c1=O)OCC", "strain": "IIIB", "cell line": "CEM + CEM-SS", "result": ">200 µM"}
{"SMILES": "Nc1nc(N)c2ncn([C@H]3CO[C@@H](CO)O3)c2n1", "strain": "IIIB", "cell line": "H9", "result": "0.075 µM"}
{"SMILES": "O=C1N(Cc2ccc3[nH]ncc3c2)[C@H](CCc2ccccc2)[C@@H](O)[C@@H](Cc2ccccc2)N1Cc1ccc2[nH]ncc2c1", "strain": "RF", "cell line": "MT-2", "result": "<0.006 µM"}